Data as given in PubChem BioAssay AID624099 (ICCB-Longwood, 2012)
The whole screen tested about 21,000 reagents; shown is a random part of them. 497 of all reagents (2.4%) count as active. 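Higher z means weaker E2 silencing; only reporter increases were scored, and knock-downs that hurt cell survival may mask genuine repressor factors.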 Unmarked entries are inactive. The numbers tell different reagents against one gene apart.

Purpose: 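Knock-downs relieving repression by E2 of an HPV18 LCR luciferase reporter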 (primary screen)
Cells: human C33A cervical carcinoma cells (HPV-negative) stably expressing BPV1 E2 and an HPV18 LCR luciferase reporter
Reagent: siRNA pool against human genes, 40 nM
Time to read-out: 72 h
Detection: 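HPV18 LCR reporter light per well, converted to plate-wise z-scores that exclude control wells, and averaged over triplicate plates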
Reading the numbers: mean z-score and z-score: higher = stronger reporter signal, weaker E2 silencing
Call rule: 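Hit if mean z-score reaches 2 and two or more of three replicate z-scores also reach 2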

SCEL → mean z-score: -0.51; z-score, replicate A: -0.56; z-score, replicate B: -0.25; z-score, replicate C: -0.7
MRPL34 → mean z-score: -0.81; z-score, replicate A: -0.88; z-score, replicate B: -0.75; z-score, replicate C: -0.8
LINC02903 #1 → mean z-score: -0.55; z-score, replicate A: -0.9; z-score, replicate B: -0.5; z-score, replicate C: -0.24
LINC02903 #2 → mean z-score: -0.84; z-score, replicate A: -0.3; z-score, replicate B: -1.21; z-score, replicate C: -1.02
LINC00642 → mean z-score: -0.78; z-score, replicate A: -0.58; z-score, replicate B: -0.78; z-score, replicate C: -0.97
LINC00173 → mean z-score: 0.38; z-score, replicate A: 0.38; z-score, replicate B: 0.37; z-score, replicate C: 0.38
STX5 → mean z-score: -0.57; z-score, replicate A: -0.39; z-score, replicate B: -0.56; z-score, replicate C: -0.76
ERMN → mean z-score: -0.16; z-score, replicate A: -0.3; z-score, replicate B: -0.27; z-score, replicate C: 0.1
PES1 → mean z-score: -0.28; z-score, replicate A: 0; z-score, replicate B: -0.32; z-score, replicate C: -0.52
PNMA2 → mean z-score: 0.83; z-score, replicate A: 0.97; z-score, replicate B: 0.98; z-score, replicate C: 0.55
CORO7 → mean z-score: 0.25; z-score, replicate A: 0.4; z-score, replicate B: 0.2; z-score, replicate C: 0.14
LOC340913 (retired record) → mean z-score: -0.24; z-score, replicate A: -0.29; z-score, replicate B: -0.34; z-score, replicate C: -0.08
MFN1 → mean z-score: -0.22; z-score, replicate A: 0.09; z-score, replicate B: -0.12; z-score, replicate C: -0.64
PLD2 → mean z-score: -0.27; z-score, replicate A: -0.29; z-score, replicate B: -0.27; z-score, replicate C: -0.24

A few values from the list:
PLD2, z-score, replicate B → -0.27
PNMA2, z-score, replicate C: 0.55
